Patent US20240122867A1, “CORONAL PROTEIN-COATED NANOPARTICLES AND USES THEREOF” (UNIVERSITY OF CENTRAL FLORIDA RESEARCH FOUNDATION, INC., priority 2021, published 2024)
Read-outs that look alike come from different tables or passages of the source.

B1: Proteasome subunit alpha type-2 (protein, UniProt P49722 2-234, looked up)
Proteasome subunit alpha …: AERGYSFSLTTFSPSGKLVQIEYALAAVAGGAPSVGIKAANGVVLATEKKQKSILYDERSVHKVEPITKHIGLVYSGMGPDYRVLVHRARKLAQQYYLVYQEPIPTAQLVQRVASVMQEYTQSGGVRPFGVSLLICGWNEGRPYLFQSDPSGAYFAWKATAMGKNYVNGKTFLEKRYNEDLELEDAIHTAILTLKESFEGQMTEDNIEVGICNEAGFRRLTPTEVRDYLAAIA
B2: Apolipoprotein A-IV (protein, UniProt P06728 21-395, looked up)
Apolipoprotein A-IV: EVTSDQVANVVWDYFTQLSNNAKEAVEQFQKTDVTQQLSTLFQDKLGDASTYADGVHNKLVPFVVQLSGHLAQETERVKEEIKKELEDLRDRMMPHANKVTQTFGENMQKLQEHLKPYAVDLQDQINTQTQEMKLQLTPYIQRMQTTIKENVDNLHTSMMPLATNLKDKFNRNMEELKGHLTPRANELKATIDQNLEDLRRSLAPLTVGVQEKLNHQMEGLAFQMKKNAEELQTKVSAKIDQLQKNLAPLVEDVQSKVKGNTEGLQKSLEDLNRQLEQQVEEFRRTVEPMGEMFNKALVQQLEQFRQQLGPNSGEVESHLSFLEKSLREKVNSFMSTLEKKGSPDQPQALPLPEQAQEQAQEQAQEQVQPKPLES
B3: Coagulation factor XIII B chain (protein, UniProt Q07968 22-669, looked up)
Coagulation factor XIII B …: EEKQCDFPTVENGRIAQYYYTFKSFYFPMSVDKKLSFFCLAGYATESGKQEEQIRCTAEGWSPNPRCYKKCLKPDLRNGYVSNDKVLYKLQERMSYGCSSGYKTTGGKDEEVVHCLSAGWSSQPSCRKEQETCLAPELEHGNYSTTQRTFKVKDIVAYTCTAGYYTTTGKQTGEAECQANGWSLTPQCNKLMCSSLRLIENGYFHPVKQTYEEGDVVQFFCHENYYLSGSDLIQCYNFGWYPESPICEGRRNRCPPPPVPLNSKIQPHSTTYRHGERVHIECELNFVIQGSEELLCENGKWTEPPKCIEEKEKVACEQPPSVENGVAHPHSEIYYSGDKVTYRCGGGYSLRGSSTITCNRGRWTLPPECVENIENCKPPPDIANGVVVDGLLASYTTGSSVEYRCNEYYLLKGSETSRCEQGAWSSPPVCLEPCTIDVDHMNRNNIQLKWKYEGKILHGDLIDFVCKQGYNLSPSIPLSEISAQCNRGDVRYPMCIRKESKGMCASPPVIRNGDIVSSAARTYENGSSVEYRCFDNHFLQGSQNVYCVDGVWTTPPSCLEPCTLSFVEMDKNYLQLKWNFDNRPLILHGEYIEFMCKRDAYISETSIAGSVLRVQCDRGRLKYPKCTPRDRRLSFQEALRTRRQMEKR
B4: Cardiotrophin-like cytokine factor 1 (protein, UniProt Q9QZM3 28-225, looked up)
Cardiotrophin-like cytokine …: LNRTGDPGPGPSIQKTYDLTRYLEHQLRSLAGTYLNYLGPPFNEPDFNPPRLGAETLPRATVNLEVWRSLNDRLRLTQNYEAYSHLLCYLRGLNRQAATAELRRSLAHFCTSLQGLLGSIAGVMATLGYPLPQPLPGTEPAWAPGPAHSDFLQKMDDFWLLKELQTWLWRSAKDFNRLKKKMQPPAASVTLHLEAHGF
B5: Antileukoproteinase (protein, UniProt P97430 26-131, looked up)
Antileukoproteinase: GKNDAIKIGACPAKKPAQCLKLEKPQCRTDWECPGKQRCCQDACGSKCVNPVPIRKPVWRKPGRCVKTQARCMMLNPPNVCQRDGQCDGKYKCCEGICGKVCLPPM
B6: Cluster of Carboxylesterase 1C (protein, UniProt P23953 19-554, looked up)
Carboxylesterase 1C: HSLLPPVVDTTQGKVLGKYISLEGFEQPVAVFLGVPFAKPPLGSLRFAPPQPAEPWSFVKNATSYPPMCSQDAGWAKILSDMFSTEKEILPLKISEDCLYLNIYSPADLTKSSQLPVMVWIHGGGLVIGGASPYNGLALSAHENVVVVTIQYRLGIWGLFSTGDEHSPGNWAHLDQLAALRWVQDNIANFGGNPDSVTIFGESSGGISVSVLVLSPLGKDLFHRAISESGVVINTNVGKKNIQAVNEIIATLSQCNDTSSAAMVQCLRQKTESELLEISGKLVQYNISLSTMIDGVVLPKAPEEILAEKSFNTVPYIVGFNKQEFGWIIPMMLQNLLPEGKMNEETASLLLRRFHSELNISESMIPAVIEQYLRGVDDPAKKSELILDMFGDIFFGIPAVLLSRSLRDAGVSTYMYEFRYRPSFVSDKRPQTVEGDHGDEIFFVFGAPLLKEGASEEETNLSKMVMKFWANFARNGNPNGEGLPHWPEYDEQEGYLQIGATTQQAQRLKAEEVAFWTELLAKNPPETDPTEHTEHK
B7: Polypeptide N-acetylgalactosaminyltransferase 13 (protein, UniProt Q8CF93 1-556, looked up)
Polypeptide …: MRRFVYCKVVLATSLMWVLVDVFLLLYFSECNKCDDKKERSLLPALRAVISRNQEGPGEMGKAVLIPKDDQEKMKELFKINQFNLMASDLIALNRSLPDVRLEGCKTKVYPDELPNTSVVIVFHNEAWSTLLRTVYSVINRSPHYLLSEVILVDDASERDFLKLTLENYVKTLEVPVKIIRMEERSGLIRARLRGAAASKGQVITFLDAHCECTLGWLEPLLARIKEDRKTVVCPIIDVISDDTFEYMAGSDMTYGGFNWKLNFRWYPVPQREMDRRKGDRTLPVRTPTMAGGLFSIDRNYFEEIGTYDAGMDIWGGENLEMSFRIWQCGGSLEIVTCSHVGHVFRKATPYTFPGGTGHVINKNNRRLAEVWMDEFKDFFYIISPGVVKVDYGDVSVRKTLRENLKCKPFSWYLENIYPDSQIPRRYYSLGEIRNVETNQCLDNMGRKENEKVGIFNCHGMGGNQVFSYTADKEIRTDDLCLDVSRLSGPVIMLKCHHMRGNQLWEYDAERLTLRHANSNQCLDEPSEEDKMVPTMQDCSGSRSQQWLLRNMTLGT
B8: Complement factor B (protein, UniProt P04186 23-761, looked up)
Complement factor B: TPVLEARPQVSCSLEGVEIKGGSFQLLQGGQALEYLCPSGFYPYPVQTRTCRSTGSWSDLQTRDQKIVQKAECRAIRCPRPQDFENGEFWPRSPFYNLSDQISFQCYDGYVLRGSANRTCQENGRWDGQTAICDDGAGYCPNPGIPIGTRKVGSQYRLEDIVTYHCSRGLVLRGSQKRKCQEGGSWSGTEPSCQDSFMYDSPQEVAEAFLSSLTETIEGADAEDGHSPGEQQKRKIVLDPSGSMNIYLVLDGSDSIGSSNFTGAKRCLTNLIEKVASYGVRPRYGLLTYATVPKVLVRVSDERSSDADWVTEKLNQISYEDHKLKSGTNTKRALQAVYSMMSWAGDAPPEGWNRTRHVIIIMTDGLHNMGGNPVTVIQDIRALLDIGRDPKNPREDYLDVYVFGVGPLVDSVNINALASKKDNEHHVFKVKDMEDLENVFYQMIDETKSLSLCGMVWEHKKGNDYHKQPWQAKISVTRPLKGHETCMGAVVSEYFVLTAAHCFMVDDQKHSIKVSVGGQRRDLEIEEVLFHPKYNINGKKAEGIPEFYDYDVALVKLKNKLKYGQTLRPICLPCTEGTTRALRLPQTATCKQHKEQLLPVKDVKALFVSEQGKSLTRKEVYIKNGDKKASCERDATKAQGYEKVKDASEVVTPRFLCTGGVDPYADPNTCKGDSGGPLIVHKRSRFIQVGVISWGVVDVCRDQRRQQLVPSYARDFHINLFQVLPWLKDKLKDEDLGFL
B9: Discoidin domain-containing receptor 2 (protein, UniProt Q62371 22-854, looked up)
Discoidin domain-containing …: KAQVNPAICRYPLGMSGGHIPDEDITASSQWSESTAAKYGRLDSEEGDGAWCPEIPVQPDDLKEFLQIDLRTLHFITLVGTQGRHAGGHGIEFAPMYKINYSRDGSRWISWRNRHGKQVLDGNSNPYDVFLKDLEPPIVARFVRLIPVTDHSMNVCMRVELYGCVWLDGLVSYNAPAGQQFVLPGGSIIYLNDSVYDGAVGYSMTEGLGQLTDGVSGLDDFTQTHEYHVWPGYDYVGWRNESATNGFIEIMFEFDRIRNFTTMKVHCNNMFAKGVKIFKEVQCYFRSEASEWEPTAVYFPLVLDDVNPSARFVTVPLHHRMASAIKCQYHFADTWMMFSEITFQSDAAMYNNSGALPTSPMAPTTYDPMLKVDDSNTRILIGCLVAIIFILLAIIVIILWRQFWQKMLEKASRRMLDDEMTVSLSLPSESSMFNNNRSSSPSEQESNSTYDRIFPLRPDYQEPSRLIRKLPEFAPGEEESGCSGVVKPAQPNGPEGVPHYAEADIVNLQGVTGGNTYCVPAVTMDLLSGKDVAVEEFPRKLLAFKEKLGEGQFGEVHLCEVEGMEKFKDKDFALDVSANQPVLVAVKMLRADANKNARNDFLKEIKIMSRLKDPNIIRLLAVCITEDPLCMITEYMENGDLNQFLSRHEPLSSCSSDATVSYANLKFMATQIASGMKYLSSLNFVHRDLATRNCLVGKNYTIKIADFGMSRNLYSGDYYRIQGRAVLPIRWMSWESILLGKFTTASDVWAFGVTLWETFTFCQEQPYSQLSDEQVIENTGEFFRDQGRQIYLPQPALCPDSVYKLMLSCWRRETKHRPSFQEIHLLLLQQGAE
B10: BPI fold-containing family A member 1 (protein, UniProt P97361 20-278, looked up)
BPI fold-containing family A …: QLAGLPLPLGQGPPLPLNQGPPLPLNQGQLLPLAQGLPLAVSPALPSNPTDLLAGKFTDALSGGLLSGGLLGILENIPLLDVIKSGGGNSNGLVGGLLGKLTSSVPLLNNILDIKITDPQLLELGLVQSPDGHRLYVTIPLGLTLNVNMPVVGSLLQLAVKLNITAEVLAVKDNQGRIHLVLGDCTHSPGSLKISLLNGVTPVQSFLDNLTGILTKVLPELIQGKVCPLVNGILSGLDVTLVHNIAELLIHGLQFVIKV
B11: Apolipoprotein E (protein, UniProt P08226 19-311, looked up)
Apolipoprotein E: EGEPEVTDQLEWQSNQPWEQALNRFWDYLRWVQTLSDQVQEELQSSQVTQELTALMEDTMTEVKAYKKELEEQLGPVAEETRARLGKEVQAAQARLGADMEDLRNRLGQYRNEVHTMLGQSTEEIRARLSTHLRKMRKRLMRDAEDLQKRLAVYKAGAREGAERGVSAIRERLGPLVEQGRQRTANLGAGAAQPLRDRAQAFGDRIRGRLEEVGNQARDRLEEVREHMEEVRSKMEEQTQQIRLQAEIFQARLKGWFEPIVEDMHRQWANLMEKIQASVATNPIITPVAQENQ

System: coronal proteins on NPs
Set-up: species or system mouse
Conditions: for V5 Sera_Nanoparticles Quantitative Value (Normalized Total Spectra): 20:1 NP:sera, centrifuged and washed; for V5 Sera Alone (Control) Quantitative Value (Normalized Total Spectra): IAV day 5 (V5) mouse sera alone
[1] = HBPE-NPs incubated with IAV day 5 (V5) mouse sera 1 h
[2] = no NPs, mass spectrometry protein identification
[3] = HBPE-NPs incubated 1 h with IAV day 5 (V5) mouse sera

Molecule | V5 Sera_Nanoparticles Quantitative Value (Normalized Total Spectra) [1] | V5 Sera Alone (Control) Quantitative Value (Normalized Total Spectra) [2] | V5 Sera_Nanoparticles Quantitative Value (Normalized Total Spectra) [3] | V5 Sera Alone (Control) Quantitative Value (Normalized Total Spectra) (no NPs (sera-only control))
B1 | 0 | 0.9252 | – | –
B2 | – | – | 25.022 | 57.364
B3 | 0 | 0.9252 | – | –
B4 | 0 | 0.9252 | – | –
B5 | 0 | 0.9252 | – | –
B6 | – | – | 25.022 | 30.533
B7 | 0 | 0.9252 | – | –
B8 | – | – | 25.022 | 22.205
B9 | 0 | 0.9252 | – | –
B10 | 0 | 0.9252 | – | –
B11 | – | – | 26.11 | 63.841
